Tested on: human immunodeficiency virus (HIV or HTLV-III/LAV)
Test: Reverse transcriptase assay, HIV-infected mitogen stimulated human peripheral blood mononuclear cells
Details: for % Inhibition (reverse transcriptase assay): day 5 after infection

SMILES	% Inhibition (reverse transcriptase assay) (0.001 μM)	% Inhibition (reverse transcriptase assay) (0.01 μM)	% Inhibition (reverse transcriptase assay) (0.1 μM)	% Inhibition (reverse transcriptase assay) (1.0 μM)	inhibitory activity (reverse transcriptase assay) (conclusion from Table 3 data)
Nc1ccn([C@H]2CC[C@@H](CO)O2)c(=O)n1 [2',3'-dideoxycytidine, reference compound]	5.7%	37%	95%	93%	
Nc1ccn([C@H]2C=C[C@@H](CO)O2)c(=O)n1 [2',3'-dideoxycytidin-2'-ene]	29%	61%	66%	92%	confirm the inhibitory activity
